A mixed list of measured activities; the numbers were collected in NIAID ChemDB.

Common to all: whole-cell or culture tests; species: Mycobacterium tuberculosis

Inhibition is in % at the dose shown (toxicity tests: loss of growth or viability). An empty or dashed field is not shown. Neighbouring rows are from separate reports. MIC50, MIC90 and the like: level of inhibition, or share of isolates inhibited. ECn is the concentration giving n% inhibition of infection, replication or growth. MIC bound: limit read from a one-dose screen.

SMILES,strain or isolate,mutations,cells,read by,setting,read-out,tested at,value
O=c1nc2n(CC(O)C(O)C(O)C(O)CO)c3ccc(Cl)cc3nc-2c(=O)[nH]1,H37Rv,-,-,BACTEC,-,MIC bound,-,>12.5 µg/mL
CO/C(C)=C1/NC(=O)[C@H]([C@@H](C)O)NC(=O)c2csc(n2)-c2cc(O)c(-c3nc(C(=O)NCCCN4CCOCC4)cs3)nc2-c2csc(n2)[C@@H]2COC(=O)c3c4c5c(cccc5n3O)COC(=O)[C@@H](O[C@H]3C[C@](C)(O)[C@H](N(C)C)[C@H](C)O3)[C@@H](OC4)[C@H](NC(=O)c3csc1n3)c1nc(cs1)C(=O)N2,Clinical isolate 10975,Rifampicin- and isoniazid-resistant,-,broth dilution,-,MIC,-,≤250 µM
Cc1cc(-c2cc3c(cc2F)c(=O)c(C(=O)O)cn3C2CC2)cc(C)n1,131-4,-,-,-,-,MBC,-,4 µg/mL
CCOc1ccc2c(N/N=C/c3c(OC)ccc4ccccc34)ccnc2c1,H37Rv,-,VERO,-,-,inhibition,12.5 µg/mL,100%
C[C@H]1COc2c(N3CCN(C)CC3)c(F)cc3c(=O)c(C(=O)O)cn1c23,Isolate 12,-,-,-,-,MIC,-,0.25 µg/mL
O=C(N/N=C/c1ccco1)c1ccc(O)cc1,-,-,-,-,-,MIC,-,1 µg/mL
CCCCCCCCCCCCCC(=O)O,H37Rv,-,-,-,-,MIC,-,100 µg/mL
CN[C@@H]1[C@H](O[C@H]2[C@H](O[C@H]3[C@H](O)[C@@H](O)[C@H](N=C(N)N)[C@@H](O)[C@@H]3N=C(N)N)O[C@@H](C)[C@]2(O)C=O)O[C@@H](CO)[C@H](O)[C@H]1O,Isolate 7,-,-,-,-,MIC,-,16 µg/mL
COc1ccc2c(N/N=C/c3ccc4c(c3)OCO4)cc(C)nc2c1,H37Rv,-,-,-,inside macrophages,MIC,-,6.25 µg/mL
CC(=O)NC[C@H]1CN(c2ccc(N3CCOCC3)c(F)c2)C(=O)O1,Strain 325,-,-,-,-,MIC,-,0.25 µg/mL
COc1ccc(/C=N/Nc2ccnc3cc(Cl)cc(Cl)c23)c2ccccc12,H37Rv,-,VERO,-,-,MIC,-,>12.5 µg/mL
C[C@@H]1CN(c2c(F)c(N)c3c(=O)c(C(=O)O)cn(C4CC4)c3c2F)C[C@H](C)N1,Drug-resistant,-,-,-,-,MIC50,-,0.06 µg/mL
CC(Oc1ccccc1)C(=O)Nc1ccc(NC(=O)CC(=O)c2ccccc2)cc1,H37Rv,-,-,-,-,MIC,-,>100 µg/mL
CC(CNCC(c1ccccc1)c1ccccc1)NC[C@@H]1CC[C@H]2C[C@@H]1C2(C)C,-,-,-,-,-,MIC,-,12.5 µM
NNC(=O)C1CCCCC1,-,-,-,-,-,MIC,-,>200 µg/mL
COc1ccc(/C=C(/C(=O)OCC(C)C)c2ccc(OC)c(OC)c2)cc1OC,H37Rv,-,-,BACTEC,-,inhibition,12.5 µg/mL,0%
Cc1cc(O)ccc1O,H37Rv,-,-,-,-,MIC,-,>100 µg/mL
O=C(N/N=C/c1ccccc1[N+](=O)[O-])c1ccccc1,-,-,-,-,-,MIC,-,1 µg/mL
CCOC(=O)Nc1cc2c([nH]c(=S)n2/N=C/c2ccccc2)c(N)n1,H37Rv,-,-,-,-,EC50,-,>12.5 µg/mL
CC(CNC[C@@H]1CC[C@H]2C[C@@H]1C2(C)C)N[C@H]1C[C@H]2CC[C@]1(C)C2(C)C,-,-,-,-,-,MIC,-,50 µM
CC1CN(c2cc3c(cc2F)c(=O)c(C(=O)O)cn3-c2ccc(F)cc2F)CCN1,ATCC 35826,-,-,-,-,MBC,-,2 µg/mL
COc1cccc(/C=C2/N=C(Cl)OC2=O)c1O,H37Rv,-,-,BACTEC,-,inhibition,12.5 µg/mL,2%
NNC(=O)c1ccncc1,Clinical isolate 9139,Isoniazid-resistant,-,broth dilution,-,MIC,-,≤10 µM
c1ccc(C(CNCCNCC23CC4CC(CC(C4)C2)C3)c2ccccc2)cc1,-,-,-,-,-,MIC,-,9.4 µM
C=C(NC(=O)c1csc(-c2nc3c(cc2O)-c2nc(cs2)C(=O)N[C@@H]([C@@H](C)O)C(=O)N/C(=C(\C)OC)c2nc(cs2)C(=O)N[C@@H]2c4nc(cs4)C(=O)N[C@@H](COC(=O)c4c5c6c(cccc6n4O)COC(=O)[C@@H](O[C@H]4C[C@](C)(O)[C@H](N(C)C)[C@H](C)O4)[C@H]2OC5)c2nc-3cs2)n1)C(N)=O,Clinical isolate 16116,-,-,broth dilution,-,MIC,-,≤2.5 µM
NNC(=O)c1ccncc1,Isolate 12,-,-,-,-,MIC,-,>32 µg/mL
COC(=O)CCCCC(=O)Nc1cc(I)c(I)c(I)c1,H37Rv,-,-,-,-,MIC,-,>100 µg/mL
CO[C@H]1/C=C/O[C@@]2(C)Oc3c(C)c(O)c4c(=O)c(c5oc6cc(N7CCN(CC(C)C)CC7)cc(=O)c6nc5c4c3=C2O)NC(=O)/C(C)=C\C=C\[C@H](C)[C@H](O)[C@@H](C)[C@@H](O)[C@@H](C)[C@H](OC(C)=O)[C@@H]1C,12 (pyrazinamide-resistant),-,-,-,-,MIC,-,0.0019 µg/mL
C/C(=N\NC(N)=O)c1ccccc1,H37Rv,-,-,-,-,MIC,-,>100 µg/mL
CCCCC(CC)CN1CN(CC(CC)CCCC)CC(C)(NCCNCCC(c2ccccc2)c2ccccc2)C1,-,-,-,-,-,MIC,-,12.5 µM
Oc1ccc(NC(=S)Nc2ccc(O)cc2)cc1,H37Rv,-,-,-,-,MIC,-,100 µg/mL
COc1ccc2nc(-c3ccccc3)cc(N/N=C/c3ccc([N+](=O)[O-])o3)c2c1,H37Rv,-,VERO,-,-,MIC,-,12.5 µg/mL
CCCCCCCCCCCNCCNC1CCC1,-,-,-,-,-,MIC,-,50 µM
Cc1ccc(C(O)C(=O)O)cc1,H37Rv,-,-,-,-,MIC,-,>100 µg/mL
CCOC(=O)Nc1cc(NC(CC)C(O)c2ccccc2)c([N+](=O)[O-])c(N)n1,H37Rv,-,-,-,-,EC50,-,>12.5 µg/mL
O=C(NNC(=O)c1ccc([N+](=O)[O-])cc1)c1ccc(Cl)cc1,H37Rv,-,-,-,-,MIC,-,>100 µg/mL
CCOC(=O)Nc1cc(NC(c2ccccc2)c2ccccc2)c2[nH]c(=O)[nH]c2n1,H37Rv,-,-,-,-,EC50,-,>12.5 µg/mL
CCCCCCCCCCCNCCNCCc1cccc(F)c1,-,-,-,-,-,MIC,-,25 µM
O=[N+]([O-])c1ccc(O)c([As](=O)(O)O)c1,H37Rv,-,-,-,-,MIC,-,>100 µg/mL
NNS(=O)(=O)c1ccc(-c2ccc(S(=O)(=O)NN)cc2)cc1,-,-,-,-,-,MIC,-,>40 µg/mL
CO[C@H]1/C=C/O[C@@]2(C)Oc3c(C)c(O)c4c(O)c(c5c(c4c3C2=O)NC2(CCN(CC(C)C)CC2)N=5)=NC(=O)/C(C)=C\C=C\[C@H](C)[C@H](O)[C@@H](C)[C@@H](O)[C@@H](C)[C@H](OC(C)=O)[C@@H]1C,Strain 101 (D516E L533P),-,-,-,-,MIC,-,0.25 µg/mL
C[C@H]1COc2c(N3CCN(C)CC3)c(F)cc3c(=O)c(C(=O)O)cn1c23,Clinical isolate 71 A,INH RIF resistant,-,resazurin,-,MIC,-,0.25 µg/mL
C[C@H]1COc2c(N3CCN(C)CC3)c(F)cc3c(=O)c(C(=O)O)cn1c23,Strain 370,-,-,-,-,MIC,-,0.25 µg/mL
COc1cc(CCC(=O)O)ccc1O,H37Rv,-,-,-,-,MIC,-,>100 µg/mL
CC[C@H]1OC(=O)[C@H](C)[C@@H](O[C@H]2C[C@@](C)(OC)[C@@H](O)[C@H](C)O2)[C@H](C)[C@@H](O[C@@H]2O[C@H](C)C[C@H](N(C)C)[C@H]2O)[C@](C)(OC)C[C@@H](C)C(=O)[C@H](C)[C@@H](O)[C@]1(C)O,ATCC 35827,-,-,-,-,MIC,-,>8 µg/mL
O=[N+]([O-])c1cccc([As](=O)(O)O)c1,H37Rv,-,-,-,-,MIC,-,>100 µg/mL
CCOC(=O)Nc1cc(NC(C)/C(=N/O)c2ccccc2)c([N+](=O)[O-])c(N)n1,H37Rv,-,-,-,-,inhibition,12.5 µg/mL,14%
CC/C=N/NC(=O)c1ccc[n+](C)c1,H37Rv,-,-,-,-,MIC,-,>100 µg/mL
CC(=O)Nc1ccc(/C=N/NC(N)=S)cc1,Isolate C drug-resistant,-,-,-,-,MBC,-,50 µg/mL
NC(=O)Cc1c[nH]c2ccccc12,H37Rv,-,-,-,-,MIC,-,>100 µg/mL
C[C@H]1C[C@H](N)CN1c1cc2c(cc1F)c(=O)c(C(=O)O)cn2-c1ccc(F)cc1F,ATCC 35828,-,-,-,-,MBC,-,>8 µg/mL
Cc1cc(C)c(N(CCC(C)C)C(=O)c2ccccc2)c(C)c1,H37Rv,-,-,-,-,MIC,-,>100 µg/mL
CO[C@H]1/C=C/O[C@@]2(C)Oc3c(C)c(O)c4c(O)c(c(/C=N/N5CCN(C6CCCC6)CC5)c(O)c4c3C2=O)NC(=O)/C(C)=C\C=C\[C@H](C)[C@H](O)[C@@H](C)[C@@H](O)[C@@H](C)[C@H](O)[C@@H]1C,Isolate 900216 drug-susceptible,-,-,-,-,MIC,-,0.25 µg/mL
O=C(O)c1ccccc1C(=O)c1ccc(-c2ccccc2)cc1,H37Rv,-,-,-,-,MIC,-,25 µg/mL
CO[C@H]1/C=C/O[C@@]2(C)Oc3c(C)c(O)c4c(O)c(c(/C=N/N5CCN(C)CC5)c(O)c4c3C2=O)NC(=O)/C(C)=C\C=C\[C@H](C)[C@H](O)[C@@H](C)[C@@H](O)[C@@H](C)[C@H](OC(C)=O)[C@@H]1C,Clinical isolate 13923,-,-,broth dilution,-,MIC,-,≤0.1 µM
Clc1ncc(Br)c2ccccc12,H37Rv,-,-,-,-,MIC,-,100 µg/mL
CCOC(=O)Nc1cc(N)c2c(n1)OCC(N=[N+]=[N-])=N2,H37Rv,-,-,-,-,inhibition,12.5 µg/mL,0%
Nc1c(Cl)cc(Cl)c(O)c1Cl,H37Rv,-,-,-,-,MIC,-,25 µg/mL
CCOC(=O)Nc1cc(N)c2nc(CN(C)c3ccccc3)cnc2n1,H37Rv,-,-,-,-,EC50,-,>12.5 µg/mL
NC(C(=O)O)c1ccccc1,H37Rv,-,-,-,-,MIC,-,>100 µg/mL
O=C(N/N=C/c1ccc(Cl)cc1)c1ccccc1Cl,-,-,-,-,-,MIC,-,40 µg/mL
CCCCCCCCCCCNCCNC1CCc2ccccc21,-,-,-,-,-,MIC,-,25 µM
NC(=O)C(Cc1c[nH]c2ccccc12)C(N)=O,H37Rv,-,-,-,-,MIC,-,>100 µg/mL

Repeating the first 8 entries:

SMILES | strain or isolate | mutations | cells | read by | setting | read-out | tested at | value
O=c1nc2n(CC(O)C(O)C(O)C(O)CO)c3ccc(Cl)cc3nc-2c(=O)[nH]1 | H37Rv | - | - | BACTEC | - | MIC bound | - | >12.5 µg/mL
CO/C(C)=C1/NC(=O)[C@H]([C@@H](C)O)NC(=O)c2csc(n2)-c2cc(O)c(-c3nc(C(=O)NCCCN4CCOCC4)cs3)nc2-c2csc(n2)[C@@H]2COC(=O)c3c4c5c(cccc5n3O)COC(=O)[C@@H](O[C@H]3C[C@](C)(O)[C@H](N(C)C)[C@H](C)O3)[C@@H](OC4)[C@H](NC(=O)c3csc1n3)c1nc(cs1)C(=O)N2 | Clinical isolate 10975 | Rifampicin- and isoniazid-resistant | - | broth dilution | - | MIC | - | ≤250 µM
Cc1cc(-c2cc3c(cc2F)c(=O)c(C(=O)O)cn3C2CC2)cc(C)n1 | 131-4 | - | - | - | - | MBC | - | 4 µg/mL
CCOc1ccc2c(N/N=C/c3c(OC)ccc4ccccc34)ccnc2c1 | H37Rv | - | VERO | - | - | inhibition | 12.5 µg/mL | 100%
C[C@H]1COc2c(N3CCN(C)CC3)c(F)cc3c(=O)c(C(=O)O)cn1c23 | Isolate 12 | - | - | - | - | MIC | - | 0.25 µg/mL
O=C(N/N=C/c1ccco1)c1ccc(O)cc1 | - | - | - | - | - | MIC | - | 1 µg/mL
CCCCCCCCCCCCCC(=O)O | H37Rv | - | - | - | - | MIC | - | 100 µg/mL
CN[C@@H]1[C@H](O[C@H]2[C@H](O[C@H]3[C@H](O)[C@@H](O)[C@H](N=C(N)N)[C@@H](O)[C@@H]3N=C(N)N)O[C@@H](C)[C@]2(O)C=O)O[C@@H](CO)[C@H](O)[C@H]1O | Isolate 7 | - | - | - | - | MIC | - | 16 µg/mL